From ChEMBL document CHEMBL3085645, “Design, synthesis and biological evaluation of phosphorodiamidate prodrugs of antiviral and anticancer nucleosides” (Eur J Med Chem, 2013)

Assays:
[1] = tested on: Human immunodeficiency virus 1; test: Antiviral activity against HIV1 3B infected in human CEM cells assessed as virus-induced giant cell formation after 4 days by microscopic analysis; conditions: ccrf-cem, strain 3B
[2] = tested on: Human immunodeficiency virus 2; test: Antiviral activity against HIV2 ROD infected in human CEM cells assessed as virus-induced giant cell formation after 4 days by microscopic analysis; conditions: ccrf-cem, strain ISOLATE ROD

SMILES | EC50 [1] [µM] | EC50 [2] [µM]
C[C@H](NP(=O)(Nc1ccn([C@H]2CS[C@@H](CO)O2)c(=O)n1)N[C@@H](C)C(=O)OCc1ccccc1)C(=O)OCc1ccccc1 | 0.28 | 0.4
C[C@H](NP(=O)(Nc1ccn([C@H]2CS[C@@H](COP(=O)(N[C@@H](C)C(=O)OCc3ccccc3)N[C@@H](C)C(=O)OCc3ccccc3)O2)c(=O)n1)N[C@@H](C)C(=O)OCc1ccccc1)C(=O)OCc1ccccc1 | 16 | 58
